Measured values from several laboratories, pooled; numbers as filed in NIAID ChemDB.

All rows: growth or infection tests; organism: Mycobacterium tuberculosis

MIC bound: limit read from a one-dose screen. A number after MIC or MFC names an inhibition level or a share of isolates. ECn: concentration that inhibits the pathogen or its effect by n%. Blank or dashed fields: not listed here. Inhibition is in % at the dose shown (toxicity tests: loss of growth or viability). Neighbouring rows are from separate reports.

smiles	method	tested at	measure	mutations	strain	value
CC(C)N=c1cc2n(-c3ccc(Cl)cc3)c3ccccc3nc-2cc1Nc1ccc(Cl)cc1			MIC		90-0216 (DRUG-SUS)	0.4 µg/mL
COc1ccn2nc(C)c(C(=O)NCc3ccc(-c4ccc(OC(F)(F)F)cc4)c(OC)c3)c2c1	fluorescence		MIC		H37Rv	<0.02 µg/mL
O=C1C=C(Nc2nc(O)cc(=O)[nH]2)c2ccccc2C1=O			MIC bound		H37Rv	>6.25 µg/mL
Fc1ccc(-c2c(C(c3ccccc3)n3ccnc3)cnn2-c2ccc(F)cc2)cc1			MIC90		ATCC 35822 (isoniazid-resistant)	≥100 µM
NNC(=O)c1ccncc1	resazurin / fluorescence		MIC	MDR	Jal 1934	>100 µg/mL
C/C=C/C/C=C/CCC(=O)[C@H]1O[C@H]1C(N)=O			MIC		92-0492 (MDR)	10 µg/mL
CC1(C)C2CC3OB(C[C@@H](Cc4ccccc4)NC(=O)[C@@H](N)CCCCN)O[C@]3(C)C1C2	agar		MIC		H37Rv	≤5 µg/mL
COc1cc(C)c2c(Oc3cccc(C(F)(F)F)c3)c(OC)cc(NC(C)CCCN)c2n1	resazurin		MIC		H37Rv	20 µM
CC(Oc1ccccc1)C(=O)N/N=C1\CCOc2ccccc21			EC50		H37Rv	~40 µg/mL
CC1(C)C2CC3OB(C[C@@H](CCc4ccccc4)NC(=O)[C@@H](N)CCCCN)O[C@]3(C)C1C2	agar		MIC		H37Rv	≤500 µg/mL
ClC1c2ccccc2-c2nsnc2C1Cl	BACTEC	6.25 µg/mL	inhibition		H37Rv	0%
CO[C@H]1/C=C/O[C@@]2(C)Oc3c(C)c(O)c4c(O)c(c(/C=N/N5CCN(C)CC5)c(O)c4c3C2=O)NC(=O)/C(C)=C\C=C\[C@H](C)[C@H](O)[C@@H](C)[C@@H](O)[C@@H](C)[C@H](OC(C)=O)[C@@H]1C	fluorescence		MIC		H37Rv	<0.008 µg/mL
CO[C@H]1/C=C/O[C@@]2(C)Oc3c(C)c(O)c4c(O)c(c5c(c4c3C2=O)NC2(CCN(CC(C)C)CC2)N=5)=NC(=O)/C(C)=C\C=C\[C@H](C)[C@H](O)[C@@H](C)[C@@H](O)[C@@H](C)[C@H](OC(C)=O)[C@@H]1C			MIC		33 (rifampin-resistant)	0.05 µg/mL
N/C(=N/N=C/c1ccc(Cl)cc1)c1ccccn1			MIC		1454 (THC-resistant)	64 µg/mL
CCn1cc(C(=O)O)c(=O)c2cc(F)c(N3CCN(C/C(=N/OC)c4cccs4)CC3)cc21		6.25 µg/mL	inhibition		H37Rv	4%
CCn1c(-c2cc3ccccc3oc2=O)cs/c1=N\N=C\c1ccc(Cl)cc1		12.5 µg/mL	inhibition		H37Rv	24%
C[C@H](N)C(=O)N[C@@H](CB1OC2CC3CC(C3(C)C)[C@@]2(C)O1)c1ccccc1			MIC		H37Rv	≤500 µg/mL
CC(C)c1ccc(O)c(O)c(=O)c1	BACTEC		MIC bound		H37Rv	≤128 µg/mL
COc1ccn2nc(C)c(C(=O)NCc3ccc(-c4ccc(OC(F)(F)F)cc4)cc3F)c2c1	fluorescence		MIC		H37Rv	0.007 µg/mL
CC(C)=CCC/C(C)=C/CN1C(=O)CN(C)C1=O	BACTEC		MIC bound		H37Rv	>12.5 µg/mL
Cc1c2ccncc2c(C)c2c1[nH]c1ccc(Br)cc12	resazurin / fluorescence		MIC	XDR	MYC 431	>100 µM
O=C(O)c1cn(C2CC2)c2cc(N3CCN(C/C(=N/O)c4ccco4)CC3)c(F)cc2c1=O		6.25 µg/mL	inhibition		H37Rv	26%
COc1ccccc1/C=N/N=C(/N)c1ccccn1			MIC		1062 (THC-resistant)	32 µg/mL
Clc1ccccc1C(c1ccccc1)(c1ccccc1)n1ccnc1			MIC50		ATCC 35828 (pyrazinamide-resistant)	≥100 µM
C1CN1P1(N2CC2)=NP(N2CC2)(N2CC2)=NP(N2CC2)(N2CC2)=N1	BACTEC		MIC bound		H37Rv	≤128 µg/mL
Fc1ccc(-n2ncc(C(c3ccccc3)n3ccnc3)c2-c2ccccc2)cc1			MIC50		ATCC 35820 (streptomycin-resistant)	≥100 µM
CO[C@H]1/C=C/O[C@@]2(C)Oc3c(C)c(O)c4c(O)c(c(/C=N/N5CCN(C)CC5)c(O)c4c3C2=O)NC(=O)/C(C)=C\C=C\[C@H](C)[C@H](O)[C@@H](C)[C@@H](O)[C@@H](C)[C@H](OC(C)=O)[C@@H]1C	resazurin		MIC		H37Rv	<0.1 µM
O=[N+]([O-])[O][Ga]([O][N+](=O)[O-])[O][N+](=O)[O-]			EC50		Erdman	<500 µM
CC1COc2c(N3CCN(C)CC3)c(F)cc3c(=O)c(C(=O)O)cn1c23			MIC		92-0492 (MDR)	1 µg/mL
CCn1cc(C(=O)O)c(=O)c2cc(F)c(N3CCN(C/C(=N/OC)c4ccco4)CC3)cc21		6.25 µg/mL	inhibition		H37Rv	23%
Fc1ccc(-c2c(C(c3ccccc3)n3ccnc3)cnn2-c2ccc(F)cc2F)cc1			MIC50		ATCC 35837 (ethambutol-resistant)	≥100 µM
CC1(C)C2CC3OB(C[C@@H](Cc4ccccc4)NC(=O)[C@H](N)CCCCN)O[C@]3(C)C1C2			MIC		H37Rv	≤500 µg/mL
COc1ccc(OC)c(-n2nnc3ccccc3c2=O)c1	BACTEC		MIC bound		H37Rv	>12.5 µg/mL
Cc1ccc2[nH]c3c(C)c4ccncc4c(C)c3c2c1	resazurin / fluorescence		MIC	MDR	Jal 2287	>100 µM
O=c1c2cccc3c4ccccc4c4sc5ccccc5n1-c4c23	BACTEC	12.5 µg/mL	inhibition		H37Rv	-1%
CCOc1cc(/C=N/N=c2\scc(-c3cc4cc(Br)ccc4oc3=O)n2CC)ccc1O			MIC		H37Rv	>12.5 µg/mL
Clc1ccc(-c2c(C(c3ccccc3)n3ccnc3)cnn2-c2ccc(Cl)cc2Cl)cc1			MIC50		ATCC 27294	6.7 µM
NCC[C@H](O)C(=O)N[C@@H]1C[C@H](N)[C@@H](O[C@H]2O[C@H](CN)[C@@H](O)[C@H](O)[C@H]2O)[C@H](O)[C@H]1O[C@H]1O[C@H](CO)[C@@H](O)[C@H](N)[C@H]1O			MIC		90-0201 (DRUG-SUS)	0.5 µg/mL
COc1cc(C(C#N)=Cc2ccccn2)c([N+](=O)[O-])cc1OC	resazurin		MIC bound		H37Rv	>6.25 µg/mL
Fc1ccccc1-n1ncc(C(c2ccccc2)n2ccnc2)c1-c1ccccc1			MIC50		ATCC 35837 (ethambutol-resistant)	≥100 µM
CC1(C)C2CC3OB(C[C@@H](Cc4ccccc4)NC(=O)[C@@H](N)CCCN=C(N)N)O[C@]3(C)C1C2			MIC		H37Rv	≤50 µg/mL
CO[C@H]1/C=C/O[C@@]2(C)Oc3c(C)c(O)c4c(=O)c(c5oc6cc(N7CCN(C(C)C)CC7)cc(=O)c6nc5c4c3=C2O)NC(=O)/C(C)=C\C=C\[C@H](C)[C@H](O)[C@@H](C)[C@@H](O)[C@@H](C)[C@H](OC(C)=O)[C@@H]1C			MIC		2749 (rifampin-sensitive)	0.05 µg/mL
C=CCn1c(-c2cc3ccccc3oc2=O)cs/c1=N\N=C\c1ccc(O)c(OCC)c1		12.5 µg/mL	inhibition		H37Rv	96%
COc1cc(/C=N/N=C(\N)c2ccccn2)cc(OC)c1OC			MIC		H37Rv	500 µg/mL
CO/N=C(/CN1CCN(c2cc3c(cc2F)c(=O)c(C(=O)O)cn3C2CC2)CC1)c1ccco1			MIC		H37Rv	>6.25 µg/mL
COc1ccc(OC)c(/C=N/N=C(\N)c2ccccn2)c1			MIC		H37Rv	250 µg/mL
NCC[C@H](O)C(=O)N[C@@H]1C[C@H](N)[C@@H](O[C@H]2O[C@H](CN)[C@@H](O)[C@H](O)[C@H]2O)[C@H](O)[C@H]1O[C@H]1O[C@H](CO)[C@@H](O)[C@H](N)[C@H]1O	broth dilution		MIC99	KatG W149R isoniazid-resistant	H37Rv	0.5 µg/mL
N#Cc1ccccc1CSc1ncnc2nc[nH]c12	resazurin	6.25 µg/mL	inhibition		H37Rv	-9%
NC(=O)c1cnccn1			MIC		ATCC 25618	≤100 µg/mL
Fc1ccc(-n2ncc(C(c3ccccc3)n3ccnc3)c2-c2ccccc2)c(F)c1			MIC50		ATCC 27294	57.5 µM
COC12c3c(C)cc(O)c4c(=O)occ(c34)C(=O)[C@@H]1[C@@]13COC(=O)c4c(O)cc(C)c(c41)C(=O)C2[C@H]3OC(C)=O	BACTEC	12.5 µg/mL	inhibition		H37Rv	8%
CC[C@@H](CO)NCCN[C@@H](CC)CO	luminescence		MIC		H37Rv	0.3 µg/mL
CO[C@H]1/C=C/O[C@@]2(C)Oc3c(C)c(O)c4c(O)c(c(/C=N/N5CCN(C)CC5)c(O)c4c3C2=O)NC(=O)/C(C)=C\C=C\[C@H](C)[C@H](O)[C@@H](C)[C@@H](O)[C@@H](C)[C@H](OC(C)=O)[C@@H]1C			MIC90		ATCC 35828 (pyrazinamide-resistant)	1.1 µM
CC1COc2c(N3CCN(C)CC3)c(F)cc3c(=O)c(C(=O)O)cn1c23			MIC90		79 strains (drug-susceptible)	0.35 µg/mL
CN[C@@H]1[C@H](O[C@H]2[C@H](O[C@H]3[C@H](O)[C@@H](O)[C@H](N=C(N)N)[C@@H](O)[C@@H]3N=C(N)N)O[C@@H](C)[C@]2(O)C=O)O[C@@H](CO)[C@H](O)[C@H]1O	resazurin		MIC		H37Ra	0.2 µM
CCOc1cc(/C=N/N=c2\scc(-c3cc4ccccc4oc3=O)n2C2CCCCC2)ccc1O			EC50		H37Rv	<12.5 µg/mL
NC(=O)c1csc([C@@H]2O[C@H](CO)[C@@H](O)[C@H]2O)n1	BACTEC		MIC bound		H37Rv	>12.5 µg/mL
CCCCn1c(-c2cc3ccccc3oc2=O)cs/c1=N\N=C\c1ccc(O)c(OCC)c1			MIC		H37Rv	12.5 µg/mL
NNC(=O)C1=CN(Cc2ccccc2)C=CC1	BACTEC	12.5 µg/mL	inhibition		H37Rv	0%
CC1(C)C2CC3OB(C[C@@H](Cc4ccccc4)NC(=O)[C@H](Cc4ccccc4)NC(=O)[C@@H](N)Cc4ccccc4)O[C@]3(C)C1C2	agar		MIC		H37Rv	≤500 µg/mL
OCCNCCN=C1CCC(=NCCNCCO)CC1	BACTEC	12.5 µg/mL	inhibition		H37Rv	-19%
CCn1cc(C(=O)O)c(=O)c2cc(F)c(N3CCN(C/C(=N/O)c4cccs4)CC3)cc21		6.25 µg/mL	inhibition		H37Rv	1%
Cc1cn([C@H]2C[C@H](N=[N+]=[N-])[C@@H](COP(=O)(OCC(=O)c3ccccc3)OCC(=O)c3ccccc3)O2)c(=O)[nH]c1=O	BACTEC	12.5 µg/mL	inhibition		H37Rv	0%
N/C(=N\N=C\c1ccc([N+](=O)[O-])cc1)c1ccccn1			MIC		H37Rv	500 µg/mL
Cc1occc1C(=S)Nc1ccc(Cl)c(C(=O)OC2CCCC2)c1	BACTEC	12.5 µg/mL	inhibition		H37Rv	81%
Cc1ccc2[nH]c3c(C)c4cc[n+](C)cc4c(C)c3c2c1	resazurin / fluorescence		MIC			1 µg/mL
Cc1ccc(Nc2cc(N)nc(N)n2)cc1Cl	BACTEC		MIC		H37Rv	12.5 µg/mL
CC[C@H]1OC(=O)[C@H](C)[C@@H](O[C@H]2C[C@@](C)(OC)[C@@H](OC(C)=O)[C@H](C)O2)[C@H](C)[C@@H](O[C@@H]2O[C@H](C)C[C@H](N(C)C)[C@H]2O)C(C)(O)C[C@@H](C)/C(=N\OCCCC2CCCCC2)[C@H](C)[C@@H](O)[C@]1(C)O			MIC		3	3.13 µg/mL
Cc1ccc2c(c1)C1(C)C=C(CN3CCN(C)CC3)C(=O)CC1O2	BACTEC	12.5 µg/mL	inhibition		H37Rv	26%
COc1cccc(/C=N/N=C(\N)c2ccccn2)c1OC			MIC		H37Rv	250 µg/mL
COc1ccc(NC(=O)/C(=N/NC(=O)C[n+]2ccccc2)c2c(O)c3ccc(O)cc3oc2=O)c([N+](=O)[O-])c1.[Cl-]	BACTEC		MIC bound		H37Rv	>12.5 µg/mL
NNC(=O)c1ccncc1	broth dilution		MIC99		H37Rv	<0.05 µg/mL
N#CCc1nc2c(s1)C(=O)c1ccccc1C2=O	BACTEC		MIC bound		H37Rv	≤12.5 µg/mL
C[C@@H](B1OC2CC3CC(C3(C)C)[C@@]2(C)O1)[C@@H](Cc1ccccc1)NC(=O)C(N)Cc1ccccc1	agar		MIC		H37Rv	≤50 µg/mL
O=C(NC(=O)C1(C(=O)O)CCCC1)Nc1ccccc1	BACTEC	12.5 µg/mL	inhibition		H37Rv	0%
C[C@@H](NC(=O)[C@@H](N)CCCCN)[C@@H](Cc1ccccc1)B1OC2CC3CC(C3(C)C)[C@@]2(C)O1	agar		MIC		H37Rv	≤50 µg/mL

7 of the rows above, restated:

smiles	method	tested at	measure	mutations	strain	value
N/C(=N\N=C\c1ccc([N+](=O)[O-])cc1)c1ccccn1			MIC		H37Rv	500 µg/mL
Cc1ccc(Nc2cc(N)nc(N)n2)cc1Cl	BACTEC		MIC		H37Rv	12.5 µg/mL
C[C@H](N)C(=O)N[C@@H](CB1OC2CC3CC(C3(C)C)[C@@]2(C)O1)c1ccccc1			MIC		H37Rv	≤500 µg/mL
C/C=C/C/C=C/CCC(=O)[C@H]1O[C@H]1C(N)=O			MIC		92-0492 (MDR)	10 µg/mL
Fc1ccccc1-n1ncc(C(c2ccccc2)n2ccnc2)c1-c1ccccc1			MIC50		ATCC 35837 (ethambutol-resistant)	≥100 µM
Fc1ccc(-n2ncc(C(c3ccccc3)n3ccnc3)c2-c2ccccc2)c(F)c1			MIC50		ATCC 27294	57.5 µM
COc1cc(C)c2c(Oc3cccc(C(F)(F)F)c3)c(OC)cc(NC(C)CCCN)c2n1	resazurin		MIC		H37Rv	20 µM